Pooled drug test results. Numbers come from NIAID ChemDB, via PubChem.

All rows: growth or infection tests; agent: HIV-1; read by: RT activity; endpoint: EC90

ECn: concentration that inhibits the pathogen or its effect by n%.

| compound | strain or isolate | cells | changes | value |
|---|---|---|---|---|
| O[C@]12C=C(Cc3cccc4cnccc34)[C@@H]3CCN(CCCC/C=C\CC1)C[C@@]31C[C@@H]3CCCCCCN3C12 | LAV | PBMC | - | 57.9 µM |
| O=C(O)C(=O)CC(=O)c1c2ccccc2cc2ccccc12 | LAI | PBMC | - | >100 µM |
| Nc1nc(N)c2ncn(C[C@@H](CO)OCP(=O)(O)O)c2n1 | LAV | H9 | - | 64 µM |
| O=c1[nH]c(=O)n(COCCO)cc1C#Cc1ccccc1 | LAI | PBMC | - | >100 µM |
| CC(=O)N[C@H](C(=O)N[C@@H](Cc1ccccc1)[C@@H](O)CN(CC1CCCCC1)NC(=O)[C@@H](NC(C)=O)C(C)C)C(C)C | LAV | MT-2 | - | 1 µM |
| CC(C)CN(C[C@@H](O)[C@H](Cc1ccccc1)NC(=O)[C@H](CC(N)=O)NC(=O)c1ccc2ccccc2n1)C(=O)NC(C)(C)C | LAV | PBMC | - | 0.14 µM |
| Nc1ncnc2c1ncn2[C@H]1CC[C@@H](CO)O1 | LAV | PBMC | - | 2.14 µM |
| CC(C)=CCN1Cc2cccc3[nH]c(=S)n(c23)C[C@@H]1C | Subtype B isolate | PBMC | - | 0.44 µM |
| Nc1nc2c(ncn2C2CC(/C=C/P(=O)(O)O)(C(F)(F)F)CO2)c(=O)[nH]1 | LAI | PBMC | - | 95 µM |
| Nc1nc(=O)n([C@@H]2C=C(F)[C@H](CO)S2)cc1F | 3TC-resistant (RT M184V) | PBMC | RT-M184V | >100 µM |
| CCCCCCCCc1cc2cn(C/C=C/C(O)CO)c(=O)nc2o1 | LAI | PBMC | - | >100 µM |
| CCOP(=O)(CO[C@H]1C[C@@H](n2cnc3c(Cl)nc(N)nc32)C(F)(F)C1)OCC | LAI | PBMC | - | 95 µM |
| CCCCCc1ccc(C#Cc2cn(CC=C(CO)CO)c(=O)[nH]c2=O)cc1 | LAI | PBMC | - | 69.7 µM |
| Nc1nc(=O)n([C@H]2C=C[C@@H](CO)O2)cc1I | LAI | PBMC | - | >10 µM |
| O=C(O)C(=O)CC(=O)c1ccc2c(ccc3ccccc32)c1 | LAI | PBMC | - | >100 µM |
| Nc1c(S(=O)(=O)O)cc2c3c(cc(S(=O)(=O)O)cc13)C(=O)N(NC(=O)N/N=C/c1ccc(-c3ccc(/C=N/NC(=O)NN4C(=O)c5cc(S(=O)(=O)O)cc6c(N)c(S(=O)(=O)O)cc(c56)C4=O)cc3)cc1)C2=O | LAV | - | - | 146.9 µM |
| Cc1cn([C@H]2C[C@H](N=[N+]=[N-])[C@@H](CO)O2)c(=O)[nH]c1=O | Group O isolate | PBMC | - | 0.04 µM |
| O[C@]12C=C(Cc3nccc4ccccc34)[C@@H]3CCN(CCCC/C=C\CC1)C[C@@]31C[C@@H]3CCCCCCN3C12 | LAV | PBMC | - | 60.4 µM |
| CCCCCC#Cc1cn(COCCO)c(=O)[nH]c1=O | LAI | PBMC | - | >100 µM |
| CC(C)CN(C[C@@H](O)[C@H](Cc1ccccc1)NC(=O)[C@H](CC(N)=O)NC(=O)c1ccc2ccccc2n1)C(=O)NC(C)(C)C | LAI | PBL | - | 0.3 µM |
| Cc1ccccc1C(=S)Nc1ccc(Cl)c(C(=O)OC2CCCCC2)c1 | LAV | MT-2 | - | >10 µM |
| C=C(C)[C@@H]1CC[C@]2(C(=O)NCCCCCCCC(=O)N[C@@H](CC(C)C)[C@H](O)CC(=O)O)CC[C@]3(C)[C@H](CC[C@@H]4[C@@]5(C)CC[C@H](O)C(C)(C)[C@@H]5CC[C@]43C)[C@@H]12 | NL4-3 | CEM | - | 0.22 µM |
| CCCCCc1ccc(-c2cc3cn(COCCO)c(=O)nc3o2)cc1 | LAI | PBMC | - | >100 µM |
| Nc1ncnc2c1ncn2C1CC(CCP(=O)(O)O)(C(F)(F)F)CO1 | LAI | PBMC | - | 90 µM |
| Nc1ncnc2c1ncn2CCOCP(=O)(O)O | LAV | C3 | - | 27 µM |
| O[C@]12C=C(Cc3cc4cc(F)ccc4[nH]3)[C@@H]3CCN(CCCC/C=C\CC1)C[C@@]31C[C@@H]3CCCCCCN3C12 | LAV | PBMC | - | 11.5 µM |
| Cc1cn([C@H]2C[C@H](N=[N+]=[N-])[C@@H](CO)O2)c(=O)[nH]c1=O | LAV | PBMC | - | 0.0158–0.024 µM |
| Nc1ncnc2c1ncn2[C@@H]1O[C@@H](CO)C=C1F | LAV | PBMC | - | 332 µM |
| Cc1cn([C@H]2C[C@H](N=[N+]=[N-])[C@@H](COP(=O)(OCCC#N)OC[C@@H]3CC[C@H](n4cnc5c(N)ncnc54)O3)O2)c(=O)[nH]c1=O | LAV | PBMC | - | 0.248 µM |
| CCOP(=O)(CO[C@H]1C[C@@H](n2cnc3c(N)ncnc32)C(F)(F)C1)OCC | LAI | PBMC | - | 90 µM |
| O=c1[nH]cnc2c1ncn2[C@H]1CC[C@@H](CO)O1 | LAV | PBMC | - | 3.7 µM |
| Cc1ccc(C(=O)Nc2ccc(S(=O)(=O)O)c3cc(S(=O)(=O)O)cc(S(=O)(=O)O)c23)cc1NC(=O)c1cccc(NC(=O)Nc2cccc(C(=O)Nc3cc(C(=O)Nc4ccc(S(=O)(=O)O)c5cc(S(=O)(=O)O)cc(S(=O)(=O)O)c45)ccc3C)c2)c1 | LAV | - | - | 652 µM |
| CC(C)c1nc(CN(C)C(=O)N[C@H](C(=O)N[C@@H](Cc2ccccc2)C[C@H](O)[C@H](Cc2ccccc2)NC(=O)OCc2cncs2)C(C)C)cs1 | MN | MT-2 | - | 0.083 µM |
| CCOP(=O)(CO[C@H]1C[C@@H](n2cnc3c(N)nc(F)nc32)C(F)(F)C1)OCC | LAI | PBMC | - | 95 µM |
| O=c1[nH]c(=O)n([C@@H]2C=C[C@H](CO)O2)cc1F | LAI | PBMC | - | 3 µM |
| CC(=O)c1cn(C/C=C/C(O)CO)c(=O)[nH]c1=O | LAI | PBMC | - | >100 µM |
| O=c1[nH]c(=O)n([C@H]2C=C[C@@H](CO)O2)cc1F | LAI | PBMC | - | 23 µM |
| CCCCCCCCC#Cc1cn(CC=C(CO)CO)c(=O)[nH]c1=O | LAI | PBMC | - | 72.3 µM |

For reference, 2 entries again:

Nc1ncnc2c1ncn2CCOCP(=O)(O)O ; strain or isolate: LAV ; cells: C3 ; value: 27 µM
CCCCCCCCC#Cc1cn(CC=C(CO)CO)c(=O)[nH]c1=O ; strain or isolate: LAI ; cells: PBMC ; value: 72.3 µM

Two numbers with a dash give a range or band. Rows are shuffled and stem from different studies. An empty or dashed field is not shown.